Pooled drug test results. Numbers come from NIAID ChemDB, via PubChem.

All rows: growth or infection tests; agent: HIV-1; method: cytopathic effect / MTT; read-out: EC50

An empty or dashed field is not shown.

SMILES,cells,strain,changes,value
O=C1Nc2ccc(Cl)cc2CNC1c1ccccc1,MT-4,-,-,>48 µM
Nc1cccc2c1nc(-c1c(F)cccc1F)n2Cc1c(F)cccc1F,MT-4,-,RT-L100I,0.3 µM
CO[C@H]1[C@@H](O)[C@H](n2cnc3c(N)ncnc32)[C@@H](O)[C@H](O)[C@@H]1O.O=C(O)/C=C/C(=O)O,MT-4,IIIB,-,>10 µg/mL
Cc1cn([C@@H]2O[C@H](CO[Si](C)(C)C(C)(C)C)C3(OS(=O)(=O)C=C3N)[C@H]2O[Si](C)(C)C(C)(C)C)c(=O)n(C)c1=O,MT-4,Recombinant mutant,RT-A98S E138A,0.315 µM
Nc1ccn([C@H]2CC[C@@H](CO)O2)c(=O)n1,MT-4,IIIB,-,3.6 µM
CC(C)=CCN1CC(=O)Nc2ccc(Cl)cc2C1,MT-4,-,-,86.4 µM
Cc1cn([C@H]2CC[C@@H](CO)O2)c(=O)n(N)c1=O,CEM-C113 + CEM/C113,BRU,-,>100 µM
NC1=Nc2c(ncn2CCCCCP(=O)(O)O)C(=O)C1,MT-4,RF,-,>320 µM
C[C@H](CCC(=O)O)[C@H]1CC[C@H]2[C@@H]3C[C@H](OS(=O)(=O)O)[C@@H]4C[C@H](OS(=O)(=O)O)CC[C@]4(C)[C@H]3CC[C@]12C,MT-4,IIIB,-,299 µg/mL
Nc1nc(Nc2cccc3ccccc23)c2ncn(CCOCP(=O)(O)O)c2n1,CEM,IIIB,-,>100 µg/mL
CC[C@H](C)[C@H](NC(=O)[C@@H]1CCCN1C[C@H](O)[C@H](Cc1ccccc1)NC(=O)[C@H](CC(N)=O)NC(=O)OCc1ccccc1)C(=O)N[C@@H](Cc1ccccc1)C(=O)OC,CEM,IIIB,-,0.38 µM
CCNc1nc(N(C)C)nc2c1[nH]c[n+]2C[C@@H](C)OCP(=O)(O)O,MT-4,IIIB,-,6.23 ± 4.48 µg/mL
CC1NCc2cc(Cl)ccc2NC1=O,MT-4,-,-,>1187 µM
CO[C@H]1[C@@H](O)[C@H](n2ccc(N)nc2=O)[C@@H](O)[C@H](O)[C@@H]1O.O=C(O)/C=C/C(=O)O,MT-4,IIIB,-,>10 µg/mL
CC(=O)Oc1ccc(/C=C/C(=O)O[C@@H](C(=O)O)[C@@H](OC(=O)/C=C/c2ccc(OC(C)=O)c(OC(C)=O)c2)C(=O)O)cc1OC(C)=O,MT-4,NL4-3,AMD3100-resistant,>74 µM
CC(C)=CCOCn1c(Cc2cc(C)cc(C)c2)c(C(C)C)c(=O)[nH]c1=O,MT-4,IIIB,RT-Y181C,15 µM
c1cc(CN2CCCNCCNCCCNCC2)ccc1CN1CCCNCCNCCCNCC1,MT-4,HE,-,0.003 µg/mL
CCCc1c(C)[nH]c(=O)c(N(C)C)c1Cc1cc(C)cc(C)c1,MT-4,LAI,-,50.1 µM
C[C@H](CCC(=O)O)[C@H]1CC[C@H]2[C@@H]3[C@H](O)C[C@@H]4C[C@H](OS(=O)(=O)O)CC[C@]4(C)[C@H]3C[C@H](O)[C@]12C,MT-4,IIIB,-,>500 µg/mL
Fc1cccc(F)c1Cn1c(-c2c(F)cccc2F)nc2c(Br)cccc21,MT-4,-,RT-Y181C,8.4 µM
CCCCNc1nc(N)nc2c1ncn2CCOCP(=O)(O)O,MT-4,IIIB,-,2.15 µg/mL
O=C(CN1CCN(c2ccc([N+](=O)[O-])cc2)CC1)OC[C@@H]1CC[C@H](n2cnc3c(=O)[nH]cnc32)O1,MT-4,IIIB,-,4.78 µM
CC[C@H](C)[C@H](NC(=O)[C@@H]1CCCN1CC(O)[C@H](Cc1ccccc1)NC(=O)[C@H](CC(N)=O)NC(=O)[C@H](CC(C)C)NC(=O)[C@H](CO)NC(C)=O)C(=O)N[C@H](C(=O)OC)C(C)C,CEM,IIIB,-,>10 µM
CC(C)(C)NC(=O)[C@@H]1CN(Cc2cccnc2)CCN1C[C@@H](O)C[C@@H](Cc1ccccc1)C(=O)N[C@H]1c2ccccc2C[C@H]1O,MT-4,NL4-3,SQV-resistant (PR G48V L90M),0.254 µM
CCCN(C)c1c(Cc2cc(C)cc(C)c2)c(CC)c(C)[nH]c1=O,MT-4,Recombinant,RT-Y188L,0.398 µM
CC(C)CN(C[C@@H](O)[C@H](Cc1ccccc1)NC(=O)O[C@H]1CCOC1)S(=O)(=O)c1ccc(N)cc1,MT-2,GAG-L75 H219 V390 APV-resistant,Gag R409K L449F E468K PR L10F V32I M46I I54M A71V I84V,>2.5 µM
c1ncc(CN2CCCNCCNCCCNCC2)cc1CN1CCCNCCNCCCNCC1,MT-4,IIIB,-,0.04 µg/mL
CCC(C)Nc1nc(N)nc2c1ncn2CCOCP(=O)(O)O,CEM,IIIB,-,3 µg/mL
CC(C)[C@H](NC(=O)N(C)Cc1ccccn1)C(=O)N[C@@H](Cc1ccccc1)[C@H](O)[C@H](O)[C@H](Cc1ccccc1)NC(=O)[C@@H](NC(=O)N(C)Cc1ccccn1)C(C)C,MT-4,LAV,-,0.24 µM
CCOCn1c(Cc2ccccc2)c(C(C)C)c(=O)[nH]c1=O,MT-4,IIIB,RT-K103N Y181C,>100 µM
CCCN1Cc2cc(Cl)ccc2NC(=O)C1C,MT-4,-,-,540 µM
CCn1c(=O)c(C)cn([C@@H]2O[C@H](CO[Si](C)(C)C(C)(C)C)C3(OS(=O)(=O)C=C3N)[C@H]2O[Si](C)(C)C(C)(C)C)c1=O,MT-4,IIIB,RT-E138K,36.57 µM
CCc1cccc2c1nc(-c1c(F)cccc1F)n2Cc1c(F)cccc1F,MT-4,-,RT-K101E,2.82 µM
Clc1nc(Cl)c2[nH]cnc2n1,MT-4,IIIB,-,3.76 µM
CO[C@@H]1[C@@H](O)[C@@H](O)[C@H](O)[C@H](O)[C@H]1n1ccc(N)nc1=O,MT-4,IIIB,-,<10 µg/mL
CN(C)CCNc1nc(N)nc2c1ncn2CCOCP(=O)(O)O,MT-4,IIIB,-,3.25 µg/mL
CC(C)=CCN1Cc2cc(Cl)ccc2NC(=O)[C@@H]1C,MT-4,-,-,4.6 µM
CC[C@H](C)[C@H](NC(=O)[C@@H]1CCCN1CC(O)[C@H](Cc1ccccc1)NC(=O)[C@H](CC(N)=O)NC(=O)OCc1ccccc1)C(=O)N[C@@H](Cc1ccccc1)C(=O)OC,CEM,IIIB,-,0.75 µM
O=C(CN1CCN(Cc2ccccc2)CC1)OC[C@@H]1CC[C@H](n2cnc3c(=O)[nH]cnc32)O1,MT-4,IIIB,-,2.2 µM
COc1c(O)c(Br)c2c(c1OC)-c1c(c(Br)c(O)c(OC)c1OC)C[C@H](C)[C@H](C)C2,MT-4,IIIB,-,0.52 µM
CC(C)C1C(=O)Nc2ccc(Cl)cc2CN1Cc1ccco1,MT-4,-,-,7.7 µM
C[C@H](CCC(=O)O)[C@H]1CC[C@H]2[C@@H]3[C@H](OS(=O)(=O)O)C[C@@H]4C[C@H](OS(=O)(=O)O)CC[C@]4(C)[C@H]3C[C@H](OS(=O)(=O)O)[C@]12C,MT-4,IIIB,-,214 µg/mL
CC(=O)Nc1cccc2c1nc(-c1c(F)cccc1F)n2Cc1c(F)cccc1F,MT-4,-,RT-K103N,>20 µM
Nc1ccn([C@H]2CC[C@@H](CO)O2)c(=O)n1,MT-4,IIIB,-,0.66 µM
O=C(CN1CCN(c2ccc(Cl)cc2)CC1)OC[C@@H]1CC[C@H](n2cnc3c(=O)[nH]cnc32)O1,MT-4,IIIB,-,0.64 µM
CC(C)C1NCc2cc(Cl)ccc2NC1=O,MT-4,-,-,>1047 µM
O=c1[nH]cnc2c1ncn2[C@H]1CC[C@@H](CO)O1,MT-4,Recombinant mutant,RT-A98S,3.411 µM
Cc1ccnc2c1NC(=O)c1cccnc1N2C1CC1,MT-4,1506-RS (RT-Y188L),RT-Y188L,>100 µM
O=c1[nH]cnc2c1ncn2[C@H]1CC[C@@H](CO)O1,MT-4,RF,-,13 µM
COc1c(O)c(Cl)c2c(c1OC)-c1c(c(Cl)c(O)c(OC)c1OC)C[C@H](C)[C@H](C)C2,MT-4,IIIB,-,1.23 µM
CC(C)=CCN1Cc2cc(Cl)cc3[nH]c(=S)n(c23)C[C@@H]1C,MT-4,-,-,0.034 µM
CC(C)CN(C[C@@H](O)[C@H](Cc1ccccc1)NC(=O)O[C@H]1CCOC1)S(=O)(=O)c1ccc(N)cc1,MT-4,LAI,-,0.036 µM
CC(C)CN(C[C@@H](O)[C@H](Cc1ccccc1)NC(=O)O[C@H]1CCOC1)S(=O)(=O)c1ccc(N)cc1,MT-4,NL4-3,SQV-resistant (PR G48V L90M),0.056 µM
CC(=O)c1ccc(C)cc1NC(C(N)=O)c1c(Cl)cccc1Cl,MT-4,Recombinant mutant,RT-A98S E138A,0.048 µM
Cc1ccnc2c1NC(=O)c1cccnc1N2C1CC1,MT-4,IIIB,-,0.053 µM
CO[C@@H]1[C@@H](O)[C@@H](O)[C@H](O)[C@H](O)[C@H]1n1ccc(N)nc1=O.O=C(O)/C=C/C(=O)O,MT-4,IIIB,-,>10 µg/mL
Cc1cn([C@H]2C[C@H](N=[N+]=[N-])[C@@H](CO)O2)c(=O)[nH]c1=O,MT-4,RF,-,0.04 µM

A second listing of 6 rows from above:

SMILES	cells	strain	changes	value
CC(C)[C@H](NC(=O)N(C)Cc1ccccn1)C(=O)N[C@@H](Cc1ccccc1)[C@H](O)[C@H](O)[C@H](Cc1ccccc1)NC(=O)[C@@H](NC(=O)N(C)Cc1ccccn1)C(C)C	MT-4	LAV	-	0.24 µM
O=c1[nH]cnc2c1ncn2[C@H]1CC[C@@H](CO)O1	MT-4	RF	-	13 µM
CCc1cccc2c1nc(-c1c(F)cccc1F)n2Cc1c(F)cccc1F	MT-4	-	RT-K101E	2.82 µM
CC(C)(C)NC(=O)[C@@H]1CN(Cc2cccnc2)CCN1C[C@@H](O)C[C@@H](Cc1ccccc1)C(=O)N[C@H]1c2ccccc2C[C@H]1O	MT-4	NL4-3	SQV-resistant (PR G48V L90M)	0.254 µM
CO[C@H]1[C@@H](O)[C@H](n2ccc(N)nc2=O)[C@@H](O)[C@H](O)[C@@H]1O.O=C(O)/C=C/C(=O)O	MT-4	IIIB	-	>10 µg/mL
Fc1cccc(F)c1Cn1c(-c2c(F)cccc2F)nc2c(Br)cccc21	MT-4	-	RT-Y181C	8.4 µM

Rows are shuffled and stem from different studies. ECn: concentration that inhibits the pathogen or its effect by n%.